Article PMC7160669 (Biochemistry, 2019)

How the values were obtained:
Conditions in all cases: Conditions as for WT
[1] = target: ChdC (SaChdC; coproheme decarboxylase) (Staphylococcus aureus, UniProt A6QEP0, E120L)
[2] = target: ChdC (SaChdC; coproheme decarboxylase) (Staphylococcus aureus, UniProt A6QEP0, K129A)
[3] = target: ChdC (SaChdC; coproheme decarboxylase) (Staphylococcus aureus, UniProt A6QEP0, Y133F)

Substance: coproheme
- Kd [1]: 1300 ± 70 nM
- Kd [2]: 500 ± 50 nM
- Kd [3]: 1700 ± 300 nM
